Columns and labels:
Assay in all cases: cell-based or functional assay
[1] = target: H6tHAtev1S(146-206)LS (Photinus pyralis)
[2] = target: H6tHAtev1V(2-94)LS (Photinus pyralis)
[3] = target: H6tHAtev1V(2-76)LS K59R (Photinus pyralis) (UniProt P63026)
[4] = target: H6tHAtev1V(2-76)LS M46I (Photinus pyralis) (UniProt P63026)

In the case of “BoNT/A1 (recombinant, activated full-length) (from UniProt P0DPI1 2-1296)”, the EC50 of cleavage of generic substrate with reporter luc, JDZ-buffer, 1 h 37°C [1] is reported as 0.03 nM and the EC50 of substrate cleavage, endopeptidase assay, JDZ-buffer, 1 h 37°C [1] is reported as 0.03 nM.
“BoNT/B1 (recombinant, activated full-length) (from UniProt B1INP5 2-1291)” was tested, and the EC50 of cleavage of generic substrate with reporter luc, JDZ-buffer, 1 h 37°C [2] was 0.07 nM and the EC50 of substrate cleavage, endopeptidase assay, JDZ-buffer, 1 h 37°C [2] was 0.07 nM.
Work on “BoNT/C (recombinant, activated full-length) (from UniProt P18640 2-1291)” yielded an EC50 of cleavage of generic substrate with reporter luc, JDZ-buffer, 1 h 37°C [1] of 10 nM and an EC50 of substrate cleavage, endopeptidase assay, JDZ-buffer, 1 h 37°C [1] of 10 nM.
“BoNT/D (recombinant, activated full-length) (from UniProt P19321 2-1276)” showed an EC50 of cleavage of generic substrate with reporter luc, JDZ-buffer, 1 h 37°C [2] of 0.2 nM and an EC50 of substrate cleavage, endopeptidase assay, JDZ-buffer, 1 h 37°C [2] of 0.2 nM.
Substance “BoNT/D (recombinant, activated full-length) (from UniProt P19321 2-1276) (enzyme)” has an EC50 of substrate cleavage, endopeptidase assay, JDZ-buffer, 1 h 37°C [3] of 0.6 nM, an EC50 of substrate cleavage, endopeptidase assay, JDZ-buffer, 1 h 37°C [4] greater than 1000 nM and a fold increase of EC50 relative to generic H6tHAtev1V(2-94)LS [4] greater than 5000 fold.
“BoNT/E1 (recombinant, activated full-length) (from UniProt Q00496 2-1251)” gave an EC50 of cleavage of generic substrate with reporter luc, JDZ-buffer, 1 h 37°C [1] of 0.2 nM and an EC50 of substrate cleavage, endopeptidase assay, JDZ-buffer, 1 h 37°C [1] of 0.2 nM.
For “BoNT/F1 (recombinant, activated full-length) (enzyme)”, the EC50 of substrate cleavage, endopeptidase assay, JDZ-buffer, 1 h 37°C [3] was 6 nM and the EC50 of substrate cleavage, endopeptidase assay, JDZ-buffer, 1 h 37°C [4] was 0.2 nM.
Work on “LC/B1 1-436 fused to a C-terminal 6xHN-tag” yielded an EC50 of substrate cleavage, endopeptidase assay, PBS pH 7.4, 1 h 37°C [2] of 80 nM.
With “LC/D 1-436 fused to a C-terminal 6xHN-tag” the EC50 of substrate cleavage, endopeptidase assay, PBS pH 7.4, 1 h 37°C [2] was 0.6 nM.
“LC/F1 1-428 fused to a C-terminal 6xHN-tag” gave an EC50 of substrate cleavage, endopeptidase assay, PBS pH 7.4, 1 h 37°C [2] of 2.3 nM.
Substance “LC/G 1-435 fused to a C-terminal 6xHN-tag” has an EC50 of substrate cleavage, endopeptidase assay, PBS pH 7.4, 1 h 37°C [2] greater than 10 µM.
With “LC/T 1-438 fused to a C-terminal 6xHN-tag” the EC50 of substrate cleavage, endopeptidase assay, PBS pH 7.4, 1 h 37°C [2] was 83 nM.

From EP3529371B1
